# Paper PMC7034072, “Discovery of small molecule inhibitors of Leishmania braziliensis Hsp90 chaperone” (Journal of Enzyme Inhibition and Medicinal Chemistry, 2020)
# The chains behind the UniProt entries cited, without tags or fusion partners. Residues count along the entry.
# UniProt A4HL70, 1-704: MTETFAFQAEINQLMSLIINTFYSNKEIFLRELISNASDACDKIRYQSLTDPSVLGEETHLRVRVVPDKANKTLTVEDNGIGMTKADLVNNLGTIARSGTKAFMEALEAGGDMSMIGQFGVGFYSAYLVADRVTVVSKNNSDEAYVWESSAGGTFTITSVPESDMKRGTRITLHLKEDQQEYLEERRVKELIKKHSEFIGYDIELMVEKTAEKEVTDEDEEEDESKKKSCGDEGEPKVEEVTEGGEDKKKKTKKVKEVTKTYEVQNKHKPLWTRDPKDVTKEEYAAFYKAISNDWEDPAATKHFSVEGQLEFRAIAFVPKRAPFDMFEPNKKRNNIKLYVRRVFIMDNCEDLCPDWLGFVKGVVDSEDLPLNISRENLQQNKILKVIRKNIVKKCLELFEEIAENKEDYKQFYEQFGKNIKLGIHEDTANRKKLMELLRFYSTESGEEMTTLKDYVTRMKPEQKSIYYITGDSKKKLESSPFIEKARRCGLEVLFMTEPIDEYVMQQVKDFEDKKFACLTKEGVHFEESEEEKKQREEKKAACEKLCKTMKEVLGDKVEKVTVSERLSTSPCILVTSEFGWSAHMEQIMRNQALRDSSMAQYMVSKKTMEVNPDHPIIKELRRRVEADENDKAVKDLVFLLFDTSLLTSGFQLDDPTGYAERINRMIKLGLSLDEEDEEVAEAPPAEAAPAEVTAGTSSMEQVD
# Molecular target: LbHsp90 (Leishmania braziliensis, UniProt A4HL70)
# Assay: ATPase activity inhibition assay (EnzChek Pi quantification)
# Assay type: biochemical
# Conditions: 50 μM compound, 2 μM enzyme, 2.5 mM ATP
# Method: The ATPase activity of LbHsp90 and hHsp90β was evaluated spectrophotometrically through inorganic phosphate (Pi) quantification following ATP hydrolysis, by the EnzChek™ assay kit (Invitrogen®) as previous described[31]^,[34]. Briefly, a 2 µM solution of LbHsp90 and hHsp90β enzymes was prepared in 150 mM NaCl, 5 mM MgCl2 and 20 mM Tris-HCl, pH 7.5, and incubated with ATP (concentration range 0–5 mM) for 60 min at 37 °C. Then, the chromogenic substrate 2-amino-6-mercapto 7-methyl purine riboside (MESG) and the purine nucleoside phosphorylase (PNP) were added and the resulting reaction mixture was incubated for 30 min at 37 °C. The assays were performed in a 96-well plate and kinetic parameters determined by Michaelis–Menten fitting using GraphPad Prism 6 software.
# The inhibitory activity against LbHsp90 and hHsp90β of compounds showing interaction in DSF assays (namely Glb08, Glb15, Gl23, Glb25 and Glb27) was determined using spectrophotometric ATPase activity assays as described above. […] A compound concentration ranging from 1 to 75 μM was included in the reaction mixture and Pi quantification performed as previously described (measurements were performed in triplicate). IC50 values were determined by non-linear regression data fitting (using GraphPad Prism 6 software).
compound,measurement,value
N=C(N)N/N=C/c1cnn(Cc2ccccc2)c1,percentage inhibition of LbHsp90 ATPase activity,more than 90% and around 90%

# Some entries of the source have several records that differ or are many. Only these are listed. The source may hold further records. Values given together differ for a reason that is not stated; they may come from other doses, times, organisms or constructs than stated.
